# Measured values taken from patent publication US20250179152A1 (TEXAS A AND M UNIVERSITY SYSTEM, published 2025).
# B1: FSR16m (designed binder)
# chain: MGMEQKLISEEDLDGYIPEAPRDGQAYVRKDGEWVLLSTFLGGGGSLQGGGGSLQGSDLGKKLLEAARAGQDDEVRILMANGADVNALDLFGVTPLHLAAERGHLEIVEVLLKNGADVNAGDAFGRTPLHLAALGGHLEIVEVLLKNGADVNACDLYGVTPLHLAAGLGHLEIVEVLLKNGADVNAQDKFGKTAFDISIDNGNEDLAEILQSSSKLAAALEHHHHHH
# Columns and labels:
# [1] = molecular target: spike protein of authentic SARS-CoV-2 B.1.617.2 (SARS-CoV-2 (B.1.617.2)); assay: cell-based or functional assay
# [2] = molecular target: spike protein of authentic SARS-CoV-2 B.1.351 (SARS-CoV-2 (B.1.351)); assay: cell-based or functional assay
binder,measurement,setting,value
B1,IC50 against authentic Delta (B.1.617.2) variant,[1],31 pM
same,IC50 against authentic Beta (B.1.351) variant,[2],47 pM
